From publication PMC10713766

Tested on: N[C@@H](CC(=O)O)C(=O)O
Assay: purified protein
Details: pH 7.0; 25.0 °C

Q: With YPO0623 (Yersinia pestis) as the substance, how does the Km read?
A: The Km was 2.13 µM.
